A mixed list of measured activities; the numbers were collected in NIAID ChemDB.

All rows: cytotoxicity tests; cells: MT-4; read-out: CC50

CCn: concentration that lowers growth or viability of the cells by n%. Conditions beyond the fields shown may differ between rows. An empty or dashed field is not shown.

| structure | read by | result |
|---|---|---|
| CCCCCCCCCCCCCCCCCCOC(=O)c1cc(O)c(O)c(O)c1 |  | 1.4 µg/mL |
| CCCCCOc1nc(Cc2ccccc2)cc(=O)[nH]1 |  | 245 µM |
| COc1cccc2c1c(/C(O)=C\C(=O)C(=O)O)cn2Cc1ccc(F)cc1 | MTT | 41.1 µM |
| CC(C)Cc1c(OC2CCCC2)c2cc(Cl)ccc2[nH]c1=O |  | 59.2 µM |
| Cc1cn([C@H]2C[C@H](N=[N+]=[N-])[C@@H](CO)O2)c(=O)[nH]c1=O | MTT | 436 µM |
| Cc1cc(C#N)cc(C)c1Oc1nc(NC2CCN(S(=O)(=O)c3ccc4ccccc4c3)CC2)nc2ccsc12 | MTT | >219.4 µM |
| O=C(O[C@@H]1O[C@@H]2COC(=O)c3cc(O)c(O)c(O)c3-c3c(cc(O)c(O)c3O)C(=O)O[C@H]([C@H]1O)[C@@H]2O)c1cc(O)c(O)c(O)c1 |  | 13.1 µg/mL |
| O=c1cc(Cc2ccccc2)nc(OC2CCCCC2)[nH]1 |  | 157 µM |
| Nc1ncnc2c1ncn2N1CC[C@H](CO)[C@H]1CO |  | >10 µg/mL |
| CCCc1c(OC#CC2CC2)c2cc(Cl)ccc2[nH]c1=O |  | 21.7 µM |
| Cc1c(Cc2ccccc2)nc(OC2CCCCC2)[nH]c1=O |  | 375 µM |
| C=C1CN(S(=O)(=O)c2ccc(Br)cc2)CCCN(Cc2ccccc2)CCCN(S(=O)(=O)c2ccc(Br)cc2)C1 |  | 47.7 µM |
| O=C(OC[C@H]1O[C@@H](OC(=O)c2cc(O)c(O)c(O)c2)[C@H](OC(=O)c2cc(O)c(O)c(O)c2Oc2cc3c(c(O)c2O)-c2c(cc(O)c(O)c2O)C(=O)O[C@H]2[C@H](OC(=O)c4cc(O)c(O)c(O)c4)[C@@H](OC(=O)c4cc(O)c(O)c(O)c4)[C@H](OC(=O)c4cc(O)c(O)c(O)c4)O[C@@H]2COC3=O)[C@@H](OC(=O)c2cc(O)c(O)c(O)c2)[C@@H]1O)c1cc(O)c(O)c(O)c1 |  | 58.6 µg/mL |
| C=C1CN(S(=O)(=O)c2ccc(C)cc2)CCCN(CC2CC=CCC2)CCCN(S(=O)(=O)c2ccc(C)cc2)C1 |  | 32.7 µM |
| CN1CCN(C(=O)CN2CCn3c(nc(C(=O)NCc4ccc(F)cc4)c(O)c3=O)C2(C)C)CC1 | microscopy | >1 µM |
| Cc1cn(CCCO[C@@H]2O[C@H](CO)[C@@H](N=[N+]=[N-])[C@H]2O)c(=O)[nH]c1=O | MTT | >100 µg/mL |
| CCc1c(OC#CC2CC2)c2cc(F)ccc2[nH]c1=O |  | 8 µM |
| CC(C)Oc1nc(Cc2ccccc2)cc(=O)[nH]1 |  | 646 µM |
| CC(C)CN(C[C@@H](O)[C@H](Cc1cccc(F)c1)NC(=O)O[C@H]1C2COC3OCC1C3C2)S(=O)(=O)c1ccc2nc(NC3CC3)sc2c1 |  | 38 µM |
| Cc1cc(C#N)cc(C)c1Oc1nc(NC2CCN(S(=O)(=O)c3ccc(N)cc3)CC2)nc2ccsc12 | MTT | >233.7 µM |
| CCOC(=O)c1[nH]c2ccccc2c1Sc1ccccc1 |  | 1.4 µM |
| C[C@]1(CO)O[C@@H](n2cc(F)c(N)nc2=O)[C@H](O)[C@@H]1O |  | >100 µM |
| Cc1cn([C@H]2C[C@H](N=[N+]=[N-])[C@@H](COP(=O)(O)OCCS[C@@H]3O[C@H](CO)[C@@H](O)[C@H](O)[C@H]3O)O2)c(=O)[nH]c1=O |  | >10 µM |
| C=C(C)[C@@H]1CC[C@]2(C(=O)O)CC[C@]3(C)[C@H](CC[C@@H]4[C@@]5(C)CC[C@H](OC(=O)CCCC(=O)OC[C@H]6OC(n7cc(C)c(=O)[nH]c7=O)C[C@@H]6N=[N+]=[N-])C(C)(C)[C@@H]5CC[C@]43C)[C@@H]12 |  | 17 µM |
| C=C1CN(S(=O)(=O)c2ccc(Br)cc2)CCCN(C(=O)OCC)CCCN(S(=O)(=O)c2ccc(Br)cc2)C1 |  | >75 µM |
| O=CC(OC(=O)c1cc(O)c(O)c(O)c1Oc1cc2c(c(O)c1O)-c1c(cc(O)c(O)c1O)C(=O)COC1OC(OC(=O)c3cc(O)c(O)c(O)c3Oc3cc4c(=O)oc5c(O)c(O)cc6c(=O)oc(c3O)c4c56)C(OC(=O)c3cc(O)c(O)c(O)c3)C(OC(=O)c3cc(O)c(O)c(O)c3)C1OC2=O)C(OC(=O)c1cc(O)c(O)c(O)c1)C(O)C(O)CO |  | 52.8 µg/mL |
| CCCc1c(SCC2CCC2)c2cc(Cl)ccc2[nH]c1=O |  | 32.9 µM |
| O=C1OC[C@H]2OC(OC(=O)c3cc(O)c(O)c(O)c3)C(OC(=O)c3cc(O)c(O)c(O)c3)C(OC(=O)c3cc(O)c(O)c(O)c3)[C@@H]2OC(=O)c2cc(O)c(O)c3c2C2C1=CC(=O)[C@@](O)(O3)C2(O)O |  | 33 µg/mL |
| O=c1cc(Cc2ccccc2)nc(OC2CCCC2)[nH]1 |  | 466 µM |
| COC(=O)c1ccc(CN2CCC(Nc3nc(Oc4c(C)cc(C#N)cc4C)c4ccsc4n3)CC2)cc1 | MTT | >227 µM |
| CCC(C)Oc1nc(Cc2ccccc2)c(C)c(=O)[nH]1 |  | 180 µM |
| CC1(C)c2nc(C(=O)NCc3ccc(F)cc3)c(O)c(=O)n2CCN1Cc1ncco1 | microscopy | >1 µM |
| Cc1cc(C#N)cc(C)c1Oc1nc(NC2CCN(S(=O)(=O)c3ccc(C#N)cc3)CC2)nc2ccsc12 | MTT | 20.98 µM |
| Cc1c(N)nc(Nc2ccc(C#N)cc2)nc1Cc1c(Cl)cccc1Cl |  | >100 µM |
| CC(=O)c1ccc(S(=O)(=O)N2CCC(Nc3nc(Oc4c(C)cc(C#N)cc4C)c4sccc4n3)CC2)cc1 | MTT | 21.98 µM |
| C[C@]1(CO)O[C@@H](n2ccc(N)nc2=O)[C@H](O)[C@@H]1O |  | >100 µM |
| COc1ccnc2[nH]cc(C(=O)C(=O)N3CCN(C(=O)c4ccccc4)C[C@H]3C)c12 |  | >225 µM |
| CCC(C)C#COc1c(C(C)C)c(=O)[nH]c2ccc(F)cc12 |  | 18 µM |
| C=C1CN(S(=O)(=O)c2ccc(C)cc2)CCCN(CC(C)C)CCCN(S(=O)(=O)c2ccc(C)cc2)C1 |  | >75 µM |
| CCN1CCn2c(nc(C(=O)NCc3ccc(F)c(C)c3)c(O)c2=O)C(N(C)C(=O)C(=O)N(C)C)C1 | microscopy | >1 µM |
| Cc1c(Cc2c(Cl)cccc2Cl)nc(N)nc1Nc1ccc(C#N)cc1 |  | 56.3 µM |
| CC1(C)c2nc(C(=O)NCc3ccc(F)cc3)c(O)c(=O)n2CCN1CC(=O)NCc1ccncc1 | microscopy | >1 µM |
| Cc1cn([C@H]2C[C@H](N=[N+]=[N-])[C@@H](CO)O2)c(=O)[nH]c1=O |  | 1.17 µM |
| CC(C)CN(C[C@@H](O)[C@H](Cc1cc(F)cc(F)c1)NC(=O)O[C@H]1C2COC3OCC1C3C2)S(=O)(=O)c1ccc2nc(NC3CC3)sc2c1 |  | 32 µM |
| Cc1cn([C@H]2C[C@H](N=[N+]=[N-])[C@@H](COP(=O)(OCCSC(=O)C(C)(C)C)OCCSC(=O)C(C)(C)C)O2)c(=O)[nH]c1=O |  | >10 µM |
| CCCOc1nc(Cc2ccccc2)c(CC)c(=O)[nH]1 |  | 216 µM |
| C=C1C(=O)O[C@H]2C[C@H](C)[C@]3(O)C[C@H]4O[C@H]4[C@@H]3C[C@H]12 | MTT | 29.1 µg/mL |
| CCCc1c(OC2CCCC2)c2cc(F)ccc2[nH]c1=O |  | 21.2 µM |
| C=C1C(n2ccc(N)nc2=O)C=CC1(CO)CO |  | 95 µM |
| O=C(OC1OC2COC(=O)c3cc(O)c(O)c(O)c3-c3c(cc(O)c(O)c3O)C(=O)OC2C(OC(=O)c2cc(O)c(O)c(O)c2)C1OC(=O)c1cc(O)c(O)c(O)c1)c1cc(O)c(O)c(O)c1 |  | 29 µg/mL |
| CCCOc1nc(Cc2ccccc2)cc(=O)[nH]1 |  | 515 µM |
| CC(C)c1c(OC#CC2CC2)c2cc(Cl)ccc2[nH]c1=O |  | 60 µM |
| Cn1ccc(CN2CCn3c(nc(C(=O)NCc4ccc(F)cc4)c(O)c3=O)C23CCOCC3)n1 | microscopy | >1 µM |
| Cc1cc(C#N)cc(C)c1Oc1nc(NC2CCN(S(=O)(=O)c3ccccc3)CC2)nc2ccsc12 | MTT | 6.19 µM |
| CC#CCN1c2ccccc2C(=O)N(Cc2ccccc2)S1(=O)=O |  | 60.1 µM |
| O=S(=O)(O)O.O=S(=O)(O)O.O=S(=O)(O)O.O=S(=O)(O)O.O=S(=O)(O)O.O=S(=O)(O)O.OC[C@H]1O[C@@H]2O[C@H]3[C@H](O)[C@@H](O)[C@@H](O[C@H]4[C@H](O)[C@@H](O)[C@@H](O[C@H]5[C@H](O)[C@@H](O)[C@@H](O[C@H]6[C@H](O)[C@@H](O)[C@@H](O[C@H]7[C@H](O)[C@@H](O)[C@@H](O[C@H]1[C@H](O)[C@H]2O)O[C@@H]7CO)O[C@@H]6CO)O[C@@H]5CO)O[C@@H]4CO)O[C@@H]3CO |  | >2500 µg/mL |
| Cc1cc(Nc2ccc(C(=O)NCCF)cc2F)nc(-c2cccnc2)n1 | XTT | 77 µM |
| CCCOC(=O)c1cc(O)c(O)c(O)c1 |  | 11.4 µg/mL |
| CC(=O)OC[C@H]1O[C@@H](SCCOP(=O)(O)OC[C@H]2O[C@@H](n3cc(C)c(=O)[nH]c3=O)C[C@@H]2N=[N+]=[N-])[C@H](OC(C)=O)[C@@H](OC(C)=O)[C@@H]1OC(C)=O |  | >10 µM |
| O=C1c2ccccc2N(CC2CCCCC2)S(=O)(=O)N1Cc1ccccc1 |  | >125 µM |
| C=C1CN(S(=O)(=O)c2ccc(C)cc2)CCCN(CC2CC2)CCCN(S(=O)(=O)c2ccc(C)cc2)C1 |  | 36.1 µM |
| Cc1ccnc2c1NC(=O)c1cccnc1N2C1CC1 | MTT | >15 µM |

Repeating the first 6 entries:

structure	read by	result
CCCCCCCCCCCCCCCCCCOC(=O)c1cc(O)c(O)c(O)c1		1.4 µg/mL
CCCCCOc1nc(Cc2ccccc2)cc(=O)[nH]1		245 µM
COc1cccc2c1c(/C(O)=C\C(=O)C(=O)O)cn2Cc1ccc(F)cc1	MTT	41.1 µM
CC(C)Cc1c(OC2CCCC2)c2cc(Cl)ccc2[nH]c1=O		59.2 µM
Cc1cn([C@H]2C[C@H](N=[N+]=[N-])[C@@H](CO)O2)c(=O)[nH]c1=O	MTT	436 µM
Cc1cc(C#N)cc(C)c1Oc1nc(NC2CCN(S(=O)(=O)c3ccc4ccccc4c3)CC2)nc2ccsc12	MTT	>219.4 µM